Measured values as given in paper PMC9426601 (mBio, 2022).

Test system: A(H1N1pdm09) 100% WT
Design: species or system ferrets (Mustela putorius furo)
Conditions: in vivo

CCOC(=O)C1=C[C@@H](OC(CC)CC)[C@H](NC(C)=O)[C@@H](N)C1 [Oseltamivir, oseltamivir]
Serum antibody hemagglutinin inhibition (HAI) response: 2560

O=C1c2c(O)c(=O)ccn2N([C@@H]2c3ccccc3SCc3c2ccc(F)c3F)[C@@H]2COCCN12 [Baloxavir, baloxavir acid]
Serum antibody hemagglutinin inhibition (HAI) response: 1280 and 2560

“And” between values parts separate entries of the source, which are not always exact repeats. Equal values may be shown once.
